Test results reported in article PMC5285506.

System: T1, Rob
T1 sequence (looked up): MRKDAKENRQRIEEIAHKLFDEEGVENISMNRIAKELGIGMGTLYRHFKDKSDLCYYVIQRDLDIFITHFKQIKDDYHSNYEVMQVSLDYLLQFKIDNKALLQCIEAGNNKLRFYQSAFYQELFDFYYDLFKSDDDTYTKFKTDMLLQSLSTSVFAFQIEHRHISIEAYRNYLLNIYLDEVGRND
Assay: EMSA
Details: 0.1-1.5 ug Rob, outcompeted by 100-fold unlabeled specific DNA; 10 mM HEPES pH 8.0, 60 mM KCl, 4 mM MgCl2, 0.1 mM EDTA, 0.1 mg/ml BSA, 0.25 mM DTT, 5% glycerol, 1 ug salmon sperm DNA and 1 ug poly(dI-dC) per 20 ul; recombinant protein; residues 1-185; protein details: His6 (pET-28a(+)); label: biotin 5' (ica-p-R); probe letters rebuilt from the primers and the genome

“ATTGCGTTATCAATAATCTTATCCTTCAATTTTTATAACCCCCTACTGAAAATTAATCACACTATGTTACAGGAAAATTAAGTTGCAATTACAAATATTTCCGTTTAATTATAACAACAATCTATTGCAAATTAAAATACTATCAATTACCATATGGCTTACAACCTAACTAACGAAAGGTAGGTAAAGGAATTGCAA (double strand) [FULL (icaR-icaA intergenic, 198 bp)]”: binds.

Construct, isoform or probe ends are uncertain for at least one entry. Where a protein sequence is shown, tags need not be part of it.
